Compound potency records, mixed from different reports. Data source: NIAID ChemDB in PubChem.

Shared fields: whole-cell or culture tests; organism: HIV-1; cells: MT-4; read-out: EC50

ECn: concentration that inhibits the pathogen or its effect by n%.

compound,strain or isolate,mutations,read by,value
Cc1cc(N2CCS(=O)CC2)ccc1NC(=O)COc1ccc(Cl)cc1C(=O)c1nccs1,IIIB,-,cytopathic effect / propidium iodide,0.011–0.1 µM
Nc1nc(N)c2ncn([C@@H]3O[C@H](CO)C[C@@H]3F)c2n1,IIIB,-,-,>100 µM
C#CCn1cnc2c(N)ncnc21,IIIB,-,cytopathic effect,>100 µg/mL
O=C1[C@@H](c2ccccc2)NC(=S)N1c1ccccc1,-,-,cytopathic effect / XTT,>10 µg/mL
O=C[C@H](OC(=O)c1cc(O)c(O)c(O)c1)[C@@H](OC(=O)c1cc(O)c(O)c(O)c1)[C@@H]1OC(=O)c2cc(O)c(O)c(O)c2-c2c(cc(Oc3c(C(=O)O[C@@H]4O[C@@H]5COC(=O)c6cc(O)c(O)c(O)c6-c6c(cc(O)c(O)c6O)C(=O)O[C@H]5[C@H](OC(=O)c5cc(O)c(O)c(O)c5)[C@H]4OC(=O)c4cc(O)c(O)c(O)c4)cc(O)c(O)c3O)c(O)c2O)C(=O)OC[C@H]1O,IIIB,-,cytopathic effect / MTT,>50 µg/mL
Cc1nc2ccccc2c(-c2cc(F)c3c(c2C)CCCO3)c1[C@H](OC(C)(C)C)C(=O)O,NL4-3,N155H,luminescence,0.016 µM
Cc1nc(NC(=O)NCCc2ccccc2)sc1C,-,-,cytopathic effect / XTT,<10 µg/mL
COc1cc(Cc2c(C(C)C)c(=O)[nH]c(=O)n2COCCOc2ccccc2)cc(OC)c1,IIIB,Efavirenz-resistant (K103R + V179D + P225H),MTT,>33 µM
O=C(OC[C@H]1O[C@@H](OC(=O)c2cc(O)c(O)c(O)c2)[C@H](OC(=O)c2cc(O)c(O)c(O)c2)[C@@H](O)[C@@H]1O)c1cc(O)c(O)c(O)c1,IIIB,-,cytopathic effect / MTT,>50 µg/mL
S=C(NCCc1ccccc1)N1CCCc2ccccc21,-,-,cytopathic effect / XTT,>10 µg/mL
[N-]=[N+]=N[C@H]1[C@@H](F)[C@H](n2ccc(N)nc2=O)O[C@@H]1CO,IIIB,-,-,>500 µM
O=C(NCCc1ccccc1)Nc1nc2ccccc2s1,-,-,cytopathic effect / XTT,<1 µg/mL
CCOCn1c(Cc2cc(OC)cc(OC)c2)c(C(C)C)c(=O)[nH]c1=O,IIIB,Efavirenz-resistant (K103R + V179D + P225H),MTT,>100 µM
Cc1cc(C#N)cc(C(=O)c2cc(Cl)ccc2OCC(=O)Nc2ccc(S(N)(=O)=O)cc2C)c1,Nevirapine-resistant (RT Y181C),RT-Y181C,cytopathic effect / propidium iodide,<0.01 µM
Cc1cn([C@@H]2O[C@H](CO)C[C@@H]2F)c(=O)nc1N,IIIB,-,-,>500 µM
Cc1cccc(C)c1OCC(=O)N[C@@H](Cc1ccccc1)[C@H](O)CN(CC(C)C)S(=O)(=O)c1ccc2nc(NC(=O)c3ccccn3)sc2c1,R13025,-,cytopathic effect / MTT,0.123 µM
Cc1cn([C@H]2C=C[C@@H](CO)O2)c(=O)[nH]c1=O,RD 03-RT-41L 210W 215C Recombinant,-,cytopathic effect / MTT,0.31 µM
O=C(O[C@@H]1Cc2c(O)cc(O)cc2O[C@@H]1c1cc(O)c(O)c(O)c1)c1cc(O)c(O)c(O)c1,IIIB,-,cytopathic effect / MTT,>25 µg/mL
O=c1[nH]c(=O)n(Cc2cn(COCCO)nn2)cc1Br,IIIB,-,cytopathic effect,>100 µg/mL
NS(=O)(=O)c1ccc(NC(=O)NCCc2ccccc2)cc1,-,-,cytopathic effect / XTT,>10 µg/mL
CC(C)CN(C[C@@H](O)[C@H](Cc1ccccc1)NC(=O)OCc1cncs1)S(=O)(=O)c1ccc2nc(N(C)C(=O)CN3CCN(C)CC3)sc2c1,R13080,-,cytopathic effect / MTT,0.1549 µM
O=C1[C@@H](Cc2ccc(O)cc2)NC(=S)N1c1ccccc1,-,-,cytopathic effect / XTT,>10 µg/mL
Cc1cc(C)cc(Cc2c(C(C)C)c(=O)[nH]c(=O)n2COCCOc2ccccc2)c1,IIIB,Efavirenz-resistant (K103R + V179D + P225H),MTT,2.3 µM
Cc1cc2[nH]cnc2cc1NC(=O)COc1ccc(Cl)cc1C(=O)c1cc(F)cc(C(F)(F)F)c1,Nevirapine-resistant (RT Y181C),RT-Y181C,cytopathic effect / propidium iodide,<0.01 µM
Cc1cccc(C)c1OCC(=O)N[C@@H](Cc1ccccc1)[C@H](O)CN(CC(C)C)S(=O)(=O)c1ccc2nc(NC(=O)C3CCN(C)CC3)sc2c1,R13025,-,cytopathic effect / MTT,0.0191 µM
CC1(C)CC=C(c2cn(-c3nccc(C(=O)NC4CCC(N5CC6CCC(C5)O6)CC4)n3)c3ccc(F)c([C@H](OC(C)(C)C)C(=O)O)c23)CC1,NL4-3,V126I,luminescence,0.0054 µM
O=C(O[C@@H]1[C@@H](c2c(O)cc(O)c3c2O[C@H](c2ccc(O)c(O)c2)[C@H](OC(=O)c2cc(O)c(O)c(O)c2)C3)c2c(O)cc(O)cc2O[C@@H]1c1ccc(O)c(O)c1)c1cc(O)c(O)c(O)c1,IIIB,-,cytopathic effect / MTT,>50 µg/mL
CCOCn1c(Cc2cc(OC)cc(OC)c2)c(CC)c(=O)[nH]c1=O,A17,K103N + Y181C,MTT,>100 µM
O=c1[nH]c(=O)n(Cc2cn(COCCO)nn2)cc1Cl,IIIB,-,cytopathic effect,>100 µg/mL
O=CC(OC(=O)c1cc(O)c(O)c(O)c1)C(OC(=O)c1cc(O)c(O)c(O)c1)C1OC(=O)c2cc(Oc3c(C(=O)OC4OC5COC(=O)c6cc(O)c(O)c(O)c6-c6c(cc(O)c(O)c6O)C(=O)OC5C(OC(=O)c5cc(O)c(O)c(O)c5)C4OC(=O)c4cc(O)c(O)c(O)c4)cc(O)c(O)c3O)c(O)c(O)c2-c2c(cc(O)c(O)c2O)C(=O)OCC1O,IIIB,-,cytopathic effect / MTT,>50 µg/mL
O=C(NCCc1ccccc1)Nc1nc(C(F)(F)F)cs1,-,-,cytopathic effect / XTT,<1 µg/mL
CC(=O)OCCOCn1cc(Cn2ccc(=O)[nH]c2=O)nn1,IIIB,-,cytopathic effect,>100 µg/mL
O=C1O[C@@H]2O[C@@H]3COC(=O)c4cc(O)c(O)c(O)c4-c4c(cc(O)c(O)c4O)C(=O)O[C@H]3[C@H](OC(=O)c3cc(O)c(O)c(O)c3)[C@H]2OC(=O)c2cc(Oc3c(C(=O)O[C@H]4[C@H](OC(=O)c5cc(O)c(O)c(O)c5)O[C@H](CO)[C@@H](O)[C@@H]4OC(=O)c4cc(O)c(O)c(O)c4)cc(O)c(O)c3O)c(O)c(O)c2Oc2cc1cc(O)c2O,IIIB,-,cytopathic effect / MTT,>100 µg/mL
CCc1cc(=O)c2ccc3c(c2o1)[C@@H](OC(=O)C12CCC(C)(C(=O)O1)C2(C)C)[C@@H](OC(=O)C12CCC(C)(C(=O)O1)C2(C)C)C(C)(C)O3,NL4-3,-,p24,0.014 µM
O=C(COc1ccc(Cl)cc1C(=O)c1cc2ccccc2o1)Nc1ccccc1,Nevirapine-resistant (RT Y181C),RT-Y181C,cytopathic effect / propidium iodide,0.101–1 µM
CC(C)CN(C[C@@H](O)[C@H](Cc1ccccc1)NC(=O)O[C@H]1CO[C@H]2OCC[C@H]21)S(=O)(=O)c1ccc2nc(NC(=O)c3ccccn3)sc2c1,IIIB,-,cytopathic effect / MTT,0.0046 µM
CCc1c(Cc2cc(OC)cc(OC)c2)[nH]c(=S)[nH]c1=O,IIIB,Efavirenz-resistant (K103R + V179D + P225H),MTT,>100 µM
O=C(NCCc1ccccc1)Nc1nc(-c2ccc(Br)cc2)cs1,-,-,cytopathic effect / XTT,>100 µg/mL
CCCCCCCCCCCCCCCCCCOC(=O)c1cc(O)c(O)c(O)c1,IIIB,-,cytopathic effect / MTT,>3.1 µg/mL
Nc1ncnc2c1ncn2Cc1cn(COCCO)nn1,IIIB,-,cytopathic effect,>100 µg/mL
O=C(COc1ccc(Cl)cc1C(=O)c1nccs1)Nc1ccccc1,IIIB,-,cytopathic effect / propidium iodide,0.101–1 µM
CC(C)CN(C[C@@H](O)[C@H](Cc1ccccc1)NC(=O)O[C@H]1CO[C@H]2OCC[C@H]21)S(=O)(=O)c1ccc2nc(NC3CCN(C4CCCC4)CC3)sc2c1,T21217,L10F I47V L90M,reporter gene,312 nM
O=C(COc1ccc(Cl)cc1C(=O)c1ccco1)Nc1ccc2cn[nH]c2c1,IIIB,-,cytopathic effect / propidium iodide,<0.01 µM
CC(=O)N(C)c1nc2ccc(S(=O)(=O)N(Cc3ccccn3)C[C@@H](O)[C@H](Cc3ccccc3)NC(=O)COc3c(C)cccc3C)cc2s1,LAI,-,cytopathic effect / MTT,>0.5 µM
O=C(NCCc1ccccc1)Nc1ncccn1,-,-,cytopathic effect / XTT,>100 µg/mL
Cc1cc(C#N)cc(C(=O)c2cc(Cl)ccc2OCC(=O)Nc2ccc(OCCCN3CC=CC3)cc2C)c1,IIIB,-,cytopathic effect / propidium iodide,<0.01 µM
CCc1c(Cc2cc(C)cc(C)c2)n(COCCOc2ccccc2)c(=O)[nH]c1=O,N119,Y181C,MTT,2.6 µM
Cc1cc(S(N)(=O)=O)ccc1NC(=O)COc1ccc(Cl)cc1C(=O)c1cc(F)cc(C(F)(F)F)c1,Nevirapine-resistant (RT Y181C),RT-Y181C,cytopathic effect / propidium iodide,<0.01 µM
CCc1c(Cc2cc(OC)cc(OC)c2)n(COCCOc2ccccc2)c(=O)[nH]c1=O,A17,K103N + Y181C,MTT,>41 µM
C#CCn1cc(F)c(=O)[nH]c1=O,IIIB,-,cytopathic effect,>100 µg/mL
CC(C)CN(C[C@@H](O)[C@H](Cc1ccccc1)NC(=O)O[C@@H]1CO[C@@H]2OCC[C@@H]21)S(=O)(=O)c1ccc2nc(NC(=O)CN3CCCC3)sc2c1,LAI,-,cytopathic effect / MTT,<0.05 µM
O=C(/C=C/c1ccc(O)c(O)c1)OC(Cc1ccc(O)c(O)c1)C(=O)O,IIIB,-,cytopathic effect / MTT,>50 µg/mL

Again, the opening 4 rows:

| compound | strain or isolate | mutations | read by | value |
|---|---|---|---|---|
| Cc1cc(N2CCS(=O)CC2)ccc1NC(=O)COc1ccc(Cl)cc1C(=O)c1nccs1 | IIIB | - | cytopathic effect / propidium iodide | 0.011–0.1 µM |
| Nc1nc(N)c2ncn([C@@H]3O[C@H](CO)C[C@@H]3F)c2n1 | IIIB | - | - | >100 µM |
| C#CCn1cnc2c(N)ncnc21 | IIIB | - | cytopathic effect | >100 µg/mL |
| O=C1[C@@H](c2ccccc2)NC(=S)N1c1ccccc1 | - | - | cytopathic effect / XTT | >10 µg/mL |

Neighbouring rows are from separate reports. Blank or dashed fields: not listed here. Two numbers with a dash give a range or band.